Results of unrelated studies side by side (data: NIAID ChemDB).

Shared fields: tests on isolated targets

Percent inhibition refers to the dose given; in toxicity tests it is the harm to the cells. Blank or dashed fields: not listed here. ICn is the concentration giving n% inhibition. Lines come from different laboratories, so protocols vary. a–b is a range or a potency band.

SMILES | protein | method | species | endpoint | dose | strain or isolate | result
Cc1ccc(C(=O)N(c2cc(-c3ccccc3)sc2C(=O)O)C(C)C)c(/C=N/O)c1 | NS3 ATPase |  | Hepatitis C virus | IC50 |  |  | 5–20 µM
CCc1nc([C@@H]2C[C@@](CC(C)C)(C(=O)O)N(C(=O)c3ccc(C(C)(C)C)c(OC)c3)[C@H]2c2nccs2)no1 | RNA-dependent RNA polymerase |  | Hepatitis C virus | IC50 |  |  | <50 µM
C=CC1CC1(NC(=O)[C@@H]1C[C@@H](OC(=O)n2c3ccccc3c3ccccc32)CN1C(=O)[C@@H](NC(=O)OC(C)(C)C)C(C)(C)C)C(=O)NS(=O)(=O)C1CC1 | NS3/NS4A protease |  | Hepatitis C virus | IC50 |  | BMS/H77C/J416S | <0.1 µM
Cc1cc(C)c(C#N)c(=N)o1 | RNase H | RNase H / substrate cleavage | Hepatitis B virus | inhibition | 10 µM | gtH | >43%
CCOC(=O)c1cc2nc(-c3ccccc3)cc(-c3ccccc3)n2n1 | RNA-dependent RNA polymerase |  | Hepatitis C virus | IC50 |  |  | >10 µM
NCc1ccc(-c2ccc(Cc3cc(=O)n(O)c4ncccc34)cc2)cc1 | RNase H | RNase H / substrate cleavage | Hepatitis B virus | inhibition | 10 µM | gtH | <24%
O=C(O)c1cc2nc(-c3ccc(OCc4ccccc4)cc3)cc(-c3ccc(Cl)cc3Cl)n2n1 | RNA-dependent RNA polymerase |  | Hepatitis C virus | IC50 |  |  | >10 µM
CCC[C@]1(CC(=O)O)OCCc2c1[nH]c1c(C)ccc(C#N)c21 | NS5B polymerase |  | Hepatitis C virus | IC50 |  | 207-248 genotype 1A | 0.5 µM
CC(C)N(C(=O)c1ccc(Cl)cc1F)c1cc(-c2ccccc2)sc1C(=O)O | NS3 ATPase |  | Hepatitis C virus | IC50 |  |  | <5 µM
O=C(/C=C/c1ccc(O)c(O)c1)O[C@H]1[C@H](O)C[C@](O)(C(=O)O)C[C@H]1OC(=O)/C=C/c1ccc(O)c(O)c1 | HBeAg | ELISA | Hepatitis B virus | inhibition | 10 µg/mL | HepG 2.2.15 | 6.7%
c1ccc(Oc2cccc(-c3cnc4c(-c5nn[nH]n5)cnn4c3C3CCCCC3)c2)cc1 | RNA-dependent RNA polymerase |  | Hepatitis C virus | IC50 |  |  | 1–10 µM
C[C@H](Cn1cnc2c(N)ncnc21)OCP(=O)(O)O | HBsAg | ELISA | Hepatitis B virus | IC50 |  | HepG 2.2.15 | >1740 µM
CC(C)Nc1cccnc1N1CCN(C(=O)c2ccc(C(=O)NC(C)(C)C)cn2)CC1 | Reverse transcriptase |  | Hepatitis B virus | IC50 |  |  | 0.002 µg/mL
Cc1ccc2nc(-c3ccc(N=NNc4ccc(-c5nc6ccc(C)c(S(=O)(=O)O)c6s5)cc4)cc3)sc2c1S(=O)(=O)O | NS3 helicase | ATP / substrate cleavage / absorbance | Hepatitis C virus | inhibition | 200 µM |  | 18%
CCC[C@H](NC(=O)[C@H](CC1CCCCC1)NC(=O)[C@@H](NC(=O)[C@H](CC(C)C)NC(=O)[C@@H](CCC(=O)O)NC(=O)CCC(=O)O)[C@@H](C)CC)c1nn[nH]n1 | HCV NS3 protease |  | Hepatitis C virus | Ki |  |  | 5.3 µM
C=CCN(C(=O)Cc1ccc(Cl)cc1Cl)c1cc(-c2ccccc2)sc1C(=O)O | NS3 ATPase |  | Hepatitis C virus | IC50 |  |  | 5–20 µM
CC(C)C[C@@]1(C(=O)O)C[C@H](c2ncno2)[C@H](c2nc3ccccc3s2)N1C(=O)c1ccc(C(C)(C)C)c(Br)c1 | RNA-dependent RNA polymerase |  | Hepatitis C virus | IC50 |  |  | <50 µM
C=CC1CC1(NC(=O)[C@@H]1C[C@@H](OC(=O)NCCc2cccs2)CN1C(=O)[C@@H](NC(=O)OC(C)(C)C)C(C)(C)C)C(=O)O | NS3/NS4A protease |  | Hepatitis C virus | IC50 |  | BMS/H77C/J416S | >10 µM
COc1cc(C(=O)N2[C@@H](c3nccs3)[C@H](c3nnc(C)o3)C[C@@]2(CC(C)C)C(=O)O)ccc1C(C)(C)C | RNA-dependent RNA polymerase |  | Hepatitis C virus | IC50 |  |  | <50 µM
CCC[C@H](NC(=O)[C@H](CC1CCCCC1)NC(=O)[C@@H](NC(=O)[C@H](CC(C)C)NC(=O)[C@@H](CCC(=O)O)NC(=O)[C@H](CCC(=O)O)NC(=O)CCC(=O)O)[C@@H](C)CC)c1nn[nH]n1 | HCV NS3 protease |  | Hepatitis C virus | Ki |  |  | 0.156 µM
CC(C)C[C@@]1(C(=O)O)C[C@H](c2nc(-c3ccc(F)cc3)no2)[C@H](c2nccs2)N1C(=O)c1ccc(C(C)(C)C)cc1 | RNA-dependent RNA polymerase |  | Hepatitis C virus | IC50 |  |  | <50 µM
O=C(c1ccc2[nH]ccc2c1)N1CCC2(CCCN(c3ncc(-c4ccccc4)c(-c4ccc(Cl)cc4)n3)C2)CC1 | Nonstructural protein 4B | radioligand binding / binding | Hepatitis C virus | IC50 |  |  | 0.0421 µM
CCNc1cccnc1N1CCN(C(=O)c2ccc(C(=O)NCc3ccccn3)cn2)CC1 | Reverse transcriptase |  | Hepatitis B virus | IC50 |  |  | 0.116 µg/mL
Cc1ccc(C(=O)N(c2cc(-c3ccc(F)cc3)sc2C(=O)O)C(C)C)cc1 | NS3 ATPase |  | Hepatitis C virus | IC50 |  |  | <5 µM
COc1ccc(-c2cc(-c3ccc(C(F)(F)F)cc3)nc3cc(C(=O)O)nn23)cc1F | RNA-dependent RNA polymerase |  | Hepatitis C virus | IC50 |  |  | >10 µM
CC(C)C(=O)N(Cc1ccc(C(C)(C)C)cc1)c1cc(-c2ccccc2)sc1C(=O)O | NS3 ATPase |  | Hepatitis C virus | IC50 |  |  | 5–20 µM
CCn1c(-c2ccccc2OCc2ccc(C)cc2)nc2ccccc21 | NS5B RdRp activity |  | Hepatitis C virus | inhibition | 100 µM | 1b | 24.2%
C=C[C@@H]1C[C@]1(NC(=O)[C@@H]1C[C@@H]2CN1C(=O)[C@H](C(C)(C)C)NC(=O)OCC(C)(C)CCCCc1cccc3c1CN(C3)C(=O)O2)C(=O)NS(=O)(=O)c1ccc2c(c1)B(O)OC2 | HCV NS3 1a | FRET | Hepatitis C virus | IC50 |  |  | 0.004 µM
COc1ccc2cc(OC[C@@H]3C[C@H]4C(=O)N(C)CCCC/C=C/[C@@H]5C[C@@]5(C(=O)O)NC(=O)N34)c(-c3nc(C(C)C)cs3)nc2c1C | Nonstructural protein 3/4A | FRET | Hepatitis C virus | IC50 |  |  | <1 µM
O=C(O)c1cc2nccc(-c3ccc(-c4ccccc4)cc3)n2n1 | RNA-dependent RNA polymerase |  | Hepatitis C virus | IC50 |  |  | >10 µM
C=CC1CC1(NC(=O)[C@@H]1C[C@@H](OC(=O)Nc2ccccc2C(=O)OCC)CN1C(=O)[C@@H](NC(=O)OC(C)(C)C)C(C)(C)C)C(=O)NS(=O)(=O)C1CC1 | NS3/NS4A protease |  | Hepatitis C virus | IC50 |  | BMS/H77C/J416S | <0.1 µM
Fc1ccc(-c2nc3ccccc3[nH]2)cc1F | NS5B RdRp activity |  | Hepatitis C virus | inhibition | 100 µM | 1b | 0%
O=C(c1ccccc1)N1CCC2(CCCN(c3ncc(Br)c(-c4ccc(Cl)cc4)n3)C2)CC1 | Nonstructural protein 4B | radioligand binding / binding | Hepatitis C virus | IC50 |  |  | 0.0529 µM
O=C(O)c1sc(-c2ccccc2)cc1NC(=O)N1CCN(c2cccc(Cl)c2)CC1 | NS3 ATPase |  | Hepatitis C virus | IC50 |  |  | 5–20 µM
C=CC1CC1(NC(=O)[C@@H]1C[C@@H](OC(=O)Nc2ccccc2-n2nccn2)CN1C(=O)[C@@H](NC(=O)OC(C)(C)C)C(C)(C)C)C(=O)NS(=O)(=O)C1CC1 | NS3/NS4A protease |  | Hepatitis C virus | IC50 |  | BMS/H77C/J416S | <0.1 µM
COc1cc(C(=O)N2[C@@H](c3nccs3)[C@H](c3noc(C)n3)C[C@@]2(CC(C)C)C(=O)O)ccc1C(C)(C)C | RNA-dependent RNA polymerase |  | Hepatitis C virus | IC50 |  |  | <50 µM
CCc1cc2c(cc1F)c(C#N)c(-c1ccc(S(=O)(=O)N[C@@H](C)C(F)(F)F)cn1)n2-c1ncccn1 | Nonstructural protein 4B | PCR | Hepatitis C virus | IC50 |  | 1b | 11.6 µM
C=CC1CC1(NC(=O)[C@@H]1C[C@@H](OC(=O)Nc2cc(C#N)ccc2-n2cccn2)CN1C(=O)[C@@H](NC(=O)OC(C)(C)C)C(C)(C)C)C(=O)NS(=O)(=O)C1CC1 | NS3/NS4A protease |  | Hepatitis C virus | IC50 |  | BMS/H77C/J416S | <0.1 µM
CC(C)NC(=O)c1ccc(C(=O)N2CCN(c3ncccc3N)CC2)nc1 | Reverse transcriptase |  | Hepatitis B virus | IC50 |  |  | 0.023 µg/mL
CC(C)C[C@@]1(C(=O)O)C[C@@H](c2noc(=O)[nH]2)[C@H](c2nccs2)N1C(=O)c1ccc(C(C)(C)C)cc1 | RNA-dependent RNA polymerase |  | Hepatitis C virus | IC50 |  |  | <50 µM
Nc1cccnc1N1CCN(C(=O)c2ccc(C(=O)NCc3ccccn3)cn2)CC1 | Reverse transcriptase |  | Hepatitis B virus | IC50 |  |  | 0.106 µg/mL
C[C@H](Cc1ccc(O)c(O)c1)[C@@H](C)Cc1ccc(O)c(O)c1 | RNase H | RNase H / substrate cleavage | Hepatitis B virus | inhibition | 10 µM | gtD | >43%
O=C(O)c1cc2nccc(-c3ccccc3-c3cccc(Cl)c3)n2n1 | RNA-dependent RNA polymerase |  | Hepatitis C virus | IC50 |  |  | >10 µM
Cc1ccc(COc2ccccc2-c2nc3ccccc3[nH]2)cc1 | NS5B RdRp activity |  | Hepatitis C virus | inhibition | 100 µM | 1b | 0%
COc1ccc2ccccc2c1/C=N/NC(=O)c1ccc(O)c(O)c1 | RNase H | RNase H / substrate cleavage | Hepatitis B virus | inhibition | 10 µM | gtD | >43%
CC(C)c1ccc(-c2nc3ccccc3[nH]2)cc1 | NS5B RdRp activity |  | Hepatitis C virus | inhibition | 100 µM | 1b | 10.9%
C=CC1CC1(NC(=O)[C@@H]1C[C@@H](OC(=O)Nc2ccc(OC)cc2[N+](=O)[O-])CN1C(=O)[C@@H](NC(=O)OC(C)(C)C)C(C)(C)C)C(=O)NS(=O)(=O)C1CC1 | NS3/NS4A protease |  | Hepatitis C virus | IC50 |  | BMS/H77C/J416S | <0.1 µM
CCCC[C@H](NC(=O)[C@@H]1[C@@H]2[C@H](CN1C(=O)[C@@H](NC(=O)NC1(CS(=O)(=O)C(C)(C)C)CCCCC1)C(C)(C)C)C2(C)C)C(=O)C(=O)NC1CC1 | NS3 | substrate cleavage | Hepatitis C virus | Ki |  |  | 0.006 µM
Cc1nc([C@@H]2C[C@@](CC(C)C)(C(=O)O)N(C(=O)c3ccc(C(C)(C)C)cc3)[C@H]2c2cccs2)n[nH]1 | RNA-dependent RNA polymerase |  | Hepatitis C virus | IC50 |  |  | <50 µM
CC(C)CNc1cccnc1N1CCN(C(=O)c2ccc(C(=O)NC3CC3)cn2)CC1 | Reverse transcriptase |  | Hepatitis B virus | IC50 |  |  | 0.002 µg/mL
CCC[C@H](NC(=O)[C@H](CC1CCCCC1)NC(=O)[C@@H](NC(=O)[C@H](CC(C)C)NC(=O)[C@@H](CCC(=O)O)NC(=O)CCC(=O)O)[C@@H](C)CC)C(=O)NS(=O)(=O)c1ccccc1 | HCV NS3 protease |  | Hepatitis C virus | Ki |  |  | 0.21 µM
COC(=O)c1cc2nc(-c3ccco3)c(C3CCCCC3)c(=O)n2[nH]1 | RNA-dependent RNA polymerase |  | Hepatitis C virus | IC50 |  |  | 1–10 µM
Cc1cc(S(=O)(=O)Nc2c(C(=O)O)sc3c2Sc2ccc(Cl)cc2C3)c(C)cc1Cl | NS3 ATPase |  | Hepatitis C virus | IC50 |  |  | 5–20 µM
O=C(O)c1cnn2c(-c3cccc(-c4ccccc4F)c3)ccnc12 | RNA-dependent RNA polymerase |  | Hepatitis C virus | IC50 |  |  | >10 µM
Cc1noc([C@@H]2C[C@@](CC(C)C)(C(=O)O)N(C(=O)c3ccc(C(C)(C)C)c(C)c3)[C@H]2c2nccs2)n1 | RNA-dependent RNA polymerase |  | Hepatitis C virus | IC50 |  |  | <50 µM

Again, the opening 7 rows:

SMILES	protein	method	species	endpoint	dose	strain or isolate	result
Cc1ccc(C(=O)N(c2cc(-c3ccccc3)sc2C(=O)O)C(C)C)c(/C=N/O)c1	NS3 ATPase		Hepatitis C virus	IC50			5–20 µM
CCc1nc([C@@H]2C[C@@](CC(C)C)(C(=O)O)N(C(=O)c3ccc(C(C)(C)C)c(OC)c3)[C@H]2c2nccs2)no1	RNA-dependent RNA polymerase		Hepatitis C virus	IC50			<50 µM
C=CC1CC1(NC(=O)[C@@H]1C[C@@H](OC(=O)n2c3ccccc3c3ccccc32)CN1C(=O)[C@@H](NC(=O)OC(C)(C)C)C(C)(C)C)C(=O)NS(=O)(=O)C1CC1	NS3/NS4A protease		Hepatitis C virus	IC50		BMS/H77C/J416S	<0.1 µM
Cc1cc(C)c(C#N)c(=N)o1	RNase H	RNase H / substrate cleavage	Hepatitis B virus	inhibition	10 µM	gtH	>43%
CCOC(=O)c1cc2nc(-c3ccccc3)cc(-c3ccccc3)n2n1	RNA-dependent RNA polymerase		Hepatitis C virus	IC50			>10 µM
NCc1ccc(-c2ccc(Cc3cc(=O)n(O)c4ncccc34)cc2)cc1	RNase H	RNase H / substrate cleavage	Hepatitis B virus	inhibition	10 µM	gtH	<24%
O=C(O)c1cc2nc(-c3ccc(OCc4ccccc4)cc3)cc(-c3ccc(Cl)cc3Cl)n2n1	RNA-dependent RNA polymerase		Hepatitis C virus	IC50			>10 µM